These results are taken from patent publication US11767303B2, “Compounds and methods for inhibiting viral replication and methods of treating and preventing flaviviral infections” (priority 2020, dated 2023).

One data set has as its system DENV2. Briefly: Viral titer (plaque) reduction assay, DENV2 in A549 cells. It is filed as cell-based, Dengue virus serotype 2. The note with it: CC50/EC50. How it is done: Viral Titer Reduction Assay. A viral titer reduction assay was used to determine the compounds' effect on DENV2 and ZIKV strains, as described previously. […] Human A549 lung carcinoma cells and human primary neural progenitor cells were used, as described previously. […] 13:e1006411 (2017), which are hereby incorporated by reference in their entirety. All experiments were performed in triplicates.
A viral plaque reduction assay was performed next to evaluate the antiviral efficacy of these derivatives. Human lung carcinoma A549 cells were infected with DENV2 in the presence of a concentration series of derivatives or a dimethyl sulfoxide (DMSO) control, and viral titers were measured at 48 hrs post-infection, as described previously.

Another data set has as its system ZIKV. Put plainly: Viral titer reduction assay, ZIKV in A549 cells. It counts as cell-based, Zika virus. The note with it: CC50/EC50. How it is done:
Viral Titer Reduction Assay. A viral titer reduction assay was used to determine the compounds' effect on DENV2 and ZIKV strains, as described previously. […] Human A549 lung carcinoma cells and human primary neural progenitor cells were used, as described previously. […] All experiments were performed in triplicates.

The structures appear in SMILES notation.

Regarding `Cl.O=C(Nc1ccc([N+](=O)[O-])cc1Cl)c1cc(Cl)ccc1OC1CCNCC1` [HJC0125], in the data set on DENV2, the “TI (DN2)” value is recorded as 239. In addition, the “TI (ZK)” value with ZIKV was 335.

Take `CC[C@H](N)COc1ccc(Cl)cc1C(=O)Nc1ccc([N+](=O)[O-])cc1Cl` [HJC0390]: the “TI (DN2)” value with DENV2 stood at 70. Also, the “TI (ZK)” value in the data set with ZIKV was >300.

Regarding `NCCCCOc1ccc(Cl)cc1C(=O)Nc1ccc([N+](=O)[O-])cc1Cl` [HJC0431], the “TI (DN2)” value in the data set on DENV2 worked out at 13. The “TI (ZK)” value in the data set with ZIKV was 79.

Turning to `CN1CCC(Oc2ccc(Cl)cc2C(=O)Nc2ccc([N+](=O)[O-])cc2Cl)CC1` [HJC0381], in the data set on DENV2, the “TI (DN2)” value was found to be 76. Also, the “TI (ZK)” value with ZIKV was 23.3.

Regarding `O=C(Nc1ccc2c(c1)S(=O)(=O)C=C2)c1cc(Cl)ccc1O` [HJC0149], the “TI (DN2)” value with DENV2 worked out at 268. The “TI (ZK)” value in the data set with ZIKV is 219.

In the case of `CN1CCN(CCOc2ccc(Cl)cc2C(=O)Nc2ccc([N+](=O)[O-])cc2Cl)CC1` [HJC0365], in the data set on DENV2, the “TI (DN2)” value was found to be 27.6. Also, the “TI (ZK)” value in the data set with ZIKV is recorded as 29.5.

Take `O=C(Nc1ccc([N+](=O)[O-])cc1Cl)c1cc(Cl)ccc1O` [Niclosamide, reference compound]: in the data set on DENV2, the “TI (DN2)” value came out at 8.7. The “TI (ZK)” value in the data set with ZIKV was 10.0.

Take `O=C(Nc1ccc([N+](=O)[O-])cc1Cl)c1cccc([N+](=O)[O-])c1O` [JMX0207, N-(2-Chloro-4-nitrophenyl)-2-hydroxy-3-nitrobenzamide]: the “TI (DN2)” value with DENV2 was 103. Also, in the data set on ZIKV, the “TI (ZK)” value came to 106.

On to `NCCCOc1ccc(Cl)cc1C(=O)Nc1ccc([N+](=O)[O-])cc1Cl` [HJC0308], for which the “TI (DN2)” value with DENV2 is 12.6. For the same compound, the “TI (ZK)” value in the data set on ZIKV was 2.8.
